PubChem BioAssay AID504761 | Drosophila RNAi Screening Center | 2011
The deposit covers about 22,000 reagents; below is an unselected part of those that have a named target and a result. Of all reagents, 116 (0.52%) are marked active. 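Calls depend on retest data that are not deposited; infection was ranked per plate without normalising between plates; the unit of the infection score is not given.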 Raw values vary from plate to plate and are shown uncorrected. A plus sign joins genes that one reagent is predicted to hit. Not given: the amount of reagent, the time to read-out.

- Purpose: 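Insect host genes that dengue virus relies on to spread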 (primary screen)
- System: D.Mel-2 cells from Drosophila
- Reagents: long dsRNA against Drosophila genes
- Conditions: infection with dengue virus type 2; dose and infection time not stated
- Measurement: 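Cells stained for dengue envelope protein and imaged; percent of infected cells per well on duplicate plates, ranked by infection, with stained nuclei counted for cell number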
- Reading the numbers: infection score: higher = more virus-infected cells; cell count: higher = more cells in the well
- Rule for the call: 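Low infection ranks in the two replicates (chance level up to 0.065) followed by a retest with a 1.5-fold or larger significant decrease, p below 0.05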
- Meaning of the calls: active = confirmed: knock-down lowers infection; inactive = not picked or not confirmed

Gene	dsRNA	infection score, replicate 1	infection score, replicate 2	cell count, replicate 1	cell count, replicate 2	outcome
hng1 (hinge1)	DRSC04555	2.38	16.2	6430	5061	inactive
toe (twin of eyg)	DRSC09174	1.6	0.69	6269	6251	inactive
Pde1c (Phosphodiesterase 1c)	DRSC02421	5.02	4.61	6097	6231	inactive
Pde1c (Phosphodiesterase 1c)	DRSC02422	11.3	6.53	5893	6033	inactive
Pde1c (Phosphodiesterase 1c)	DRSC02423	17.3	19.9	3944	5353	inactive
Pde1c (Phosphodiesterase 1c)	DRSC02424	22.5	20.8	5520	4668	inactive
Pde1c (Phosphodiesterase 1c)	DRSC02425	3.55	2.13	6611	6707	inactive
Pde1c (Phosphodiesterase 1c)	DRSC02426	4.41	5.37	6597	6595	inactive
Pde1c (Phosphodiesterase 1c)	DRSC28161	4.78	15.5	6627	5793	inactive
twe (twine)	DRSC03628	18.8	18.8	6341	6171	inactive
twe (twine)	DRSC27109	5.46	31.5	1338	5385	inactive
Cap-D3 (Chromosome associated protein D3)	DRSC02349	4.03	3.33	6003	6392	inactive
Cap-D3 (Chromosome associated protein D3)	DRSC27018	5.28		1515	46	inactive
Obp47b + CG7741	DRSC06330	3.65	13.4	1616	2425	inactive
Obp47b + CG7741	DRSC27574	13.2	30.7	6751	4063	inactive
CROT (Carnitine O-octanoyltransferase)	DRSC14518	9.82	12.1	6326	6950	inactive
CROT (Carnitine O-octanoyltransferase)	DRSC14519	11.7	1.33	5041	6392	inactive
CROT (Carnitine O-octanoyltransferase)	DRSC27733	8.01	19.2	6507	5361	inactive
SkpB (SKP1-related B)	DRSC07683	7.56	4.15	6520	6770	inactive
SkpB (SKP1-related B)	DRSC25160	0.78	3	6257	6471	inactive
Use1 (Unconventional SNARE in the ER 1)	DRSC10180	0.89	4.71	6065	5818	inactive
Use1 (Unconventional SNARE in the ER 1)	DRSC26772	3.95	7.11	6052	6328	inactive
CG17760	DRSC06694	6.49	3.59	6530	6398	inactive
CG17760	DRSC25493	2.26	3.23	5966	6043	inactive
CG12507	DRSC19463	3.66	8.12	6482	6007	inactive
CG17782	DRSC23227	3.62	7.02	6462	5545	inactive
Vps4 (Vacuolar protein sorting 4)	DRSC19338	0.87	3.4	3794	4230	inactive
Vps4 (Vacuolar protein sorting 4)	DRSC25068	1.97	3.74	4006	3880	inactive
CG13482	DRSC10024	9.66	9.59	6480	6184	inactive
CG13482	DRSC23975	32.9	17.5	5417	5933	inactive
CG3337	DRSC15478	1.39	1.37	5918	6115	inactive
CG4151	DRSC18351	5.14	3.95	5892	5922	inactive
Ufl1 (UFM1 specific ligase 1)	DRSC12527	3.03	8.9	6530	6526	inactive
CG14573	DRSC11734	2.87	6.82	6168	6156	inactive
CG14573	DRSC29094	16	13.4	4324	6045	inactive
Iswi (Imitation SWI)	DRSC07446	7.73	8.28	6196	5736	inactive
Iswi (Imitation SWI)	DRSC26047	9.03	0.99	6035	6232	inactive
Cht10 (Chitinase 10)	DRSC03766	0.16	0.42	6751	6858	active
Cht10 (Chitinase 10)	DRSC03767	19.8	13.2	6025	6377	inactive
Cht10 (Chitinase 10)	DRSC03768	4.67	8.3	6640	6684	inactive
Tsp96F (Tetraspanin 96F)	DRSC14147	2.49	3.93	6717	6695	inactive
CG17475	DRSC15238	1.43	8.48	6517	6795	inactive
CG17475	DRSC27674	22.6	34.6	5274	4769	inactive
Golgin97 (Golgin 97)	DRSC06895	5.56	11.3	6259	6559	inactive
pho (pleiohomeotic)	DRSC17219	1.14	2.14	6643	6545	inactive
Pits (Protein interacting with Ttk69 and Sin3A)	DRSC19385	2.12	2.24	6370	6771	inactive
Pits (Protein interacting with Ttk69 and Sin3A)	DRSC25013	2.99	2.21	6285	6117	inactive
grp + CG31782 (retired record)	DRSC03541	9.8	2.53	6957	6356	inactive
Jhbp12 (Juvenile hormone binding protein 12)	DRSC14621	3.19	13.4	6794	5751	inactive
CG1824	DRSC19796	5.33	4.1	5740	6079	inactive
CG14400	DRSC02384	15.1	6.97	5638	7220	inactive
CG15533	DRSC15069		9.21	257	5439	inactive
CG15533	DRSC30031	2.64	5.72	6525	6778	inactive
CG14237	DRSC23239	3.14	4.45	7298	7120	inactive
CG32219	DRSC09641	3.77	0.86	6226	5960	inactive
JYalpha	DRSC17224	1.49	4.95	6372	6668	inactive
CG9008	DRSC01889	23.7	39.8	6124	5094	inactive
CG9008	DRSC26675	0.8	1.46	6395	6362	inactive

Quoted from above for reference:
Gene	dsRNA	infection score, replicate 1	infection score, replicate 2	cell count, replicate 1	cell count, replicate 2	outcome
Pits (Protein interacting with Ttk69 and Sin3A)	DRSC19385	2.12	2.24	6370	6771	inactive
Pits (Protein interacting with Ttk69 and Sin3A)	DRSC25013	2.99	2.21	6285	6117	inactive
grp + CG31782 (retired record)	DRSC03541	9.8	2.53	6957	6356	inactive
Jhbp12 (Juvenile hormone binding protein 12)	DRSC14621	3.19	13.4	6794	5751	inactive
